Measurements reported in PMC10968383 (Bioengineering, 2024).
Substitutions are numbered along the chain they refer to. Numbers in names are those of the source.

B1: A16D-A97V (antibody, V domains shown)
VH: EVQLVQSGAEVKKPGDTVKMSCKASGYTFTDYYMKWVKQAPGKSLEWIGDINPNNGDTFYNQKFQGRATLTVDKSSNTAYMELSSLRSEDTAVYYCVKPGRTYWGQGTLVTVS
VL: DIVLTQSPDSLAVSLGERVTMSCKSSQSLLDSGNQKNYLVWYQQKPGQPPKLLIYGASTRESGVPDRFTGSGSGTDFTLTISSVQAEDVAVYYCQNDHSYPLTFGAGTKLELK
notes: IgG1
B2: A97V (antibody, V domains shown)
VH: B1 VH with D16A
VL: B1 VL
B3: A16D (antibody, V domains shown)
VH: B1 VH with V97A
VL: B1 VL
B4: 4AA (antibody, V domains shown)
VH: EVQLVQSGAEVKKPGDTVKMSCKASGYTFTDYYMKWVKQAPGKAPGKSLEWIGDINPNNGDTFYNQKFQGRATLTVDKSSNTAYMELSSLRSEDTAVYYCVKPGRTYWGQGTLVTVS
VL: B1 VL
notes: IgG1
B5: A40T plus S76I (antibody, V domains shown)
VH: B1 VH with A40T, S76I
VL: B1 VL
B6: Q39K plus S76I (antibody, V domains shown)
VH: B1 VH with Q39K, S76I
VL: B1 VL
B7: S76N (antibody, V domains shown)
VH: B1 VH with S76N
VL: B1 VL
B8: A40T (antibody, V domains shown)
VH: B1 VH with A40T
VL: B1 VL
B9: W insertion between W104 and G105 (antibody, V domains shown)
VH: EVQLVQSGAEVKKPGDTVKMSCKASGYTFTDYYMKWVKQAPGKSLEWIGDINPNNGDTFYNQKFQGRATLTVDKSSNTAYMELSSLRSEDTAVYYCVKPGRTYWWGQGTLVTVS
VL: B1 VL
B10: S76I (antibody, V domains shown)
VH: B1 VH with S76I
VL: B1 VL
B11: S76N plus S58N (antibody, V domains shown)
VH: B1 VH with S76N
VL: B1 VL with S58N
B12: Q39K (antibody, V domains shown)
VH: B1 VH with Q39K
VL: B1 VL

Target: PrPc-35aa (Homo sapiens (Human).)
Assay: BLI
Conditions: both partners purified

Binder	Kd
B1	0.113 nM

Target: T1, PrPc-Fc (Homo sapiens (Human)., UniProt P04156, biotinylated (for capture on streptavidin biosensors))
Assay: not given
Conditions: both partners purified

Binder	Kd
B2	5.15 nM
B3	3.36 nM

Target: full-length PrPc displayed on 293T cells (293T-PrPc) (Homo sapiens (Human)., UniProt P04156)
Assay: not given
Conditions: one partner purified

Binder	Kd
B4	0.0927 nM
B1	1.01 nM

Target: T1, PrPc-Fc
Assay: not given
Conditions: both partners purified
Remark: another data set of the same source

Binder	Kd
B4	0.203 nM
B1	2.06 nM

Target: T1, PrPc-Fc
Assay: not given
Conditions: both partners purified
Remark: another data set of the same source

Binder	Kd	koff	kon
B5	2.47 nM	2.25e-05 s⁻¹	9090 M⁻¹ s⁻¹
B6	3.55 nM	3.72e-05 s⁻¹	10500 M⁻¹ s⁻¹
B4	–	2.27e-06 s⁻¹	11200 M⁻¹ s⁻¹
B7	7.76 nM	9.18e-05 s⁻¹	11800 M⁻¹ s⁻¹
B8	1.33 nM	1.48e-05 s⁻¹	11100 M⁻¹ s⁻¹
B1	–	2.42e-05 s⁻¹	11700 M⁻¹ s⁻¹
B9	31.7 nM	0.00015 s⁻¹	4730 M⁻¹ s⁻¹
B10	4.86 nM	6.27e-05 s⁻¹	12900 M⁻¹ s⁻¹
B11	6.91 nM	8.29e-05 s⁻¹	12000 M⁻¹ s⁻¹
B12	3.14 nM	3.4e-05 s⁻¹	10800 M⁻¹ s⁻¹
